Compound potency records, mixed from different reports. Data source: NIAID ChemDB in PubChem.

All rows: whole-cell or culture tests; organism: Bovine viral diarrhea virus; cells: MDBK; endpoint: EC50

An empty or dashed field is not shown. ECn is the concentration giving n% inhibition of infection, replication or growth. Conditions beyond the fields shown may differ between rows.

SMILES	strain or isolate	method	result
Clc1ccc(-c2nc3ccn(Cc4ccc(Br)cc4)cc-3n2)cc1	PE515	cytopathic effect	0.021 µg/mL
CN1C(=O)CS/C1=N/N=C1\C(=O)Nc2ccc([N+](=O)[O-])cc21		cytopathic effect	50 µg/mL
CN(C)Nc1ncnc2c1ncn2[C@@H]1O[C@H](CO)[C@@H](O)[C@@]1(C)O	NADL	replicon	20 µM
NCCCCC(N)C(=O)Nc1ccc(-c2ccc(NC(=O)Nc3nc4c(Cl)cccc4s3)nc2)cc1	NADL	plaque count	0.7 µM
O=c1nc(NO)ccn1[C@@H]1O[C@H](CO)[C@@H](O)[C@H]1O			5.4 µM
NC(=O)c1nccn([C@@H]2O[C@H](CO)[C@@H](O)[C@H]2O)c1=O		plaque count	20 µM
CCN1C(=O)CS/C1=N/N=C1\C(=O)Nc2ccc([N+](=O)[O-])cc21		cytopathic effect	>17 µg/mL
Brc1ccc(Cn2ccc3nc(/C=C/c4ccccc4)nc-3c2)cc1	PE515	cytopathic effect	0.017 µg/mL
CCOc1ccccc1Nc1ncnc2c1ncn2[C@@H]1O[C@H](CO)[C@@H](O)[C@@]1(C)O	NADL	virus yield	>100 µM
CN[C@H](CC(C)C)C(=O)N[C@H]1C(=O)N[C@@H](CC(N)=O)C(=O)N[C@H]2C(=O)N[C@H]3C(=O)N[C@H](C(=O)N[C@H](C(=O)C(=O)CNOCc4ccc(Cc5ccccc5)cc4)c4cc(O)cc(O)c4-c4cc3ccc4O)[C@H](O[C@H]3C[C@](C)(N)[C@@H](O)[C@H](C)O3)c3ccc(cc3)Oc3cc2cc(c3O[C@@H]2O[C@H](CO)[C@@H](O)[C@H](O)[C@H]2O[C@H]2C[C@](C)(N[NH2+][O-])[C@@H](O)[C@H](C)O2)Oc2ccc(cc2Cl)C1O		cytopathic effect	20 µM
C=CCN1C(=O)CS/C1=N/N=C1\C(=O)Nc2ccc([N+](=O)[O-])cc21		cytopathic effect	>4 µg/mL
c1ccc(-c2ccc(Cn3ccc4nc(-c5ccccc5)nc-4c3)cc2)cc1	PE515	cytopathic effect	0.945 µg/mL
CC(=O)O[C@@H]1C[C@@H](CO)O[C@H]1n1cc(/C(Cl)=C\I)c(=O)[nH]c1=O	NADL	cytopathic effect	>100 µM
O=[N+]([O-])c1ccc2c(c1)c(N=NC(=S)Nc1ccc(Cl)cc1)c(O)n2CN1CCOCC1		cytopathic effect	>17 µg/mL
CC(C)(C)c1ccc(Cn2ccc3nc(-c4ccccc4)nc-3c2)cc1	PE515	cytopathic effect	0.07 µg/mL
CCCCCCCCCN1C[C@H](O)[C@@H](O)[C@H](O)[C@H]1CO		cytopathic effect	2.5 µM
N#Cc1ccc(Cn2ccc3nc(-c4ccccc4)nc-3c2)cc1	PE515	cytopathic effect	0.022 µg/mL
Brc1ccc(Cn2ccc3nc(-c4ccccc4)nc-3c2)cc1	L2565 (TYPE 1)	ELISA	0.6 µM
C[C@@]1(O)[C@H](O)[C@@H](CO)O[C@H]1n1cnc2c(N(N)CCO)ncnc21	NADL	virus yield	<25 µM
CC(=O)N[C@H](C(=O)N[C@@H](CCC(=O)O)C(=O)N[C@@H](CC(C)C)C(=O)N[C@@H](CCCCN)C(=O)N[C@@H](CCC(=O)O)C(=O)NC(CC(C)C)B1OC(C)(C)C(C)(C)O1)C(C)O.O=C(O)C(F)(F)F	NADL	plaque count	>90 µM
Cc1ccc(N2C(=O)C(C)S/C2=N/N=C2\C(=O)Nc3ccc([N+](=O)[O-])cc32)cc1		cytopathic effect	>41 µg/mL
Cc1cccc(Cn2ccc3nc(-c4ccccc4)nc-3c2)c1	PE515	cytopathic effect	0.013 µg/mL
CN(N)c1ncnc2c1ncn2[C@@H]1O[C@H](CO)[C@@H](O)[C@@]1(C)O	NADL	replicon	65 µM
CC(=O)O[C@H]1C[C@H](n2cc(C#CI)c(=O)[nH]c2=O)O[C@@H]1CO	NADL	cytopathic effect	>100 µM
Ic1ccc(Cn2ccc3nc(-c4ccccc4)nc-3c2)cc1	PE515	cytopathic effect	0.12 µg/mL
CC(=O)O[C@@H]1[C@H](OC(C)=O)[C@@H](CO)O[C@H]1n1cc(C#CBr)c(=O)[nH]c1=O	NADL	cytopathic effect	>100 µM
Fc1cccc(F)c1-c1nc2ccn(Cc3ccc(Cl)c(Cl)c3)cc-2n1		cytopathic effect	0.061 µg/mL
Cc1ccc(N2C(=O)CS/C2=N/N=C2\C(=O)Nc3ccc([N+](=O)[O-])cc32)cc1		cytopathic effect	>50 µg/mL
CC(CNc1ncnc2c1ncn2[C@@H]1O[C@H](CO)[C@@H](O)[C@@]1(C)O)c1ccccc1	NADL	virus yield	>100 µM

A second listing of 2 rows from above:

SMILES	strain or isolate	method	result
CC(C)(C)c1ccc(Cn2ccc3nc(-c4ccccc4)nc-3c2)cc1	PE515	cytopathic effect	0.07 µg/mL
O=c1nc(NO)ccn1[C@@H]1O[C@H](CO)[C@@H](O)[C@H]1O			5.4 µM